A mixed list of measured activities; the numbers were collected in NIAID ChemDB.

Common to all: tests in culture; organism: Mycobacterium tuberculosis

MIC bound: limit read from a one-dose screen. Rows are shuffled and stem from different studies. An empty or dashed field is not shown. a–b is a range or a potency band. A number after MIC or MFC names an inhibition level or a share of isolates. Percent inhibition refers to the dose given; in toxicity tests it is the harm to the cells. ECn: concentration that inhibits the pathogen or its effect by n%.

structure | strain or isolate | read by | read-out | dose | value
CN1C(=O)C=C(N)C1=O | H37Rv | BACTEC | MIC |  | ≥12.8 µg/mL
CCCCCCCCCCCCCCCOCCCCCCCCCCS(=O)(=O)C[C@@H]1O[C@H](CO)[C@@H](O)[C@@H]1O | H37Rv |  | EC50 |  | >6.25 µg/mL
O=C(NNc1nc(Nc2ccc(O)cc2)nc(Nc2ccccn2)n1)c1ccncc1 | H37Rv | BACTEC / radiometric | inhibition | 0.1277 µM | 77%
O=C(N/N=C/c1c(Cl)cccc1Cl)c1cccnc1 |  |  | MIC |  | 1 µg/mL
COc1ccc(Nc2nc3c(s2)c(C)c(O)c2ccccc23)cc1 | H37Rv | BACTEC | MIC bound |  | >12.5 µg/mL
CCCCc1nc(Cl)c(/C=N/NC(N)=S)n1CCCN1CCN(c2ccc(C#N)cc2)CC1 | H37Rv | agar | MIC |  | 50 µg/mL
CC(C)N=c1cc2n(-c3ccc(Cl)cc3)c3ccccc3nc-2cc1Nc1ccc(Cl)cc1 | H37Rv | resazurin | MIC |  | 0.24 µg/mL
O=C(N/N=C/c1ccc(Cl)cc1Cl)c1cccnc1 |  |  | MIC |  | 1 µg/mL
NNC(=O)c1ccncc1 | H37Rv | resazurin | MIC |  | 0.05 µg/mL
CC1CN(C(=O)OC(C)(C)C)CCN1c1cc2nc3n(c(=O)c2cc1F)-c1ccc(I)cc1C3=O | H37Rv |  | MIC |  | >4 µg/mL
O=c1oc2ccccc2c(O)c1C1=Nc2ccccc2NC(c2ccc(O)cc2)C1 | H37Rv | resazurin | MIC |  | >6.25 µg/mL
CN1CCN(c2nc(Nc3ccc(C#N)c(C(F)(F)F)c3)nc(Oc3cccc4cccnc34)n2)CC1 | H37Rv | BACTEC | MIC |  | >6.25 µg/mL
O=[N+]([O-])c1ccc2c(c1)nc(-c1ccccn1)n2CCc1ccncc1 | H37Rv | resazurin | inhibition | 6.25 µg/mL | -1%
O=C(N/N=C/C(O)C(O)C(O)C(O)CO)c1cccnc1 |  |  | MIC |  | 10–100 µg/mL
C=C[C@]1(C)CCC2=C(CCC3[C@](C)(COC(=O)CC(=O)OC)CCC[C@@]23C)C1 | H37Rv (ATCC 27294) |  | MIC |  | 4 µg/mL
CC1=C(Br)C(=O)C(C(C)C)=CC1=O | H37Rv | BACTEC | inhibition | 128 µg/mL | 100%
CC[C@H](CC[C@@H](C)[C@H]1CC[C@H]2[C@@H]3CC=C4C[C@@H](O)CC[C@]4(C)[C@H]3CC[C@]12C)C(C)C | H37Rv (ATCC 27294) |  | MIC |  | 128 µg/mL
O=C(NNC(=O)c1ccncc1)c1ccncc1 |  |  | MIC |  | 1 µg/mL
CCSc1[nH]c(Nc2nc(-c3ccccc3)n(-c3ccccc3)n2)c(C(N)=O)c1C(N)=O | H37Rv | BACTEC | inhibition | 12.5 µg/mL | 0%
O=C1c2cc(OC(F)(F)F)ccc2-n2c1nc1cnccc1c2=O | H37Rv |  | MIC |  | 0.03 µg/mL
CCOc1cccc(NC(=O)OCC[NH+]2CCCC2)c1 | My 331/88 |  | MIC |  | >1000 µM
CCCCCCCCCCS(=O)(=O)C[C@@H]1O[C@H](CO)[C@@H](O)[C@@H]1O | H37Rv |  | inhibition | 6.25 µg/mL | 21%
O=C(NN=C1CCCC1)c1ccncc1 |  |  | MIC |  | 0.1 µg/mL
O=c1oc2ccccc2c(O)c1C1=CC(c2ccccc2O)Sc2ccccc2N1 | H37Rv | resazurin | MIC |  | <6.25 µg/mL
N#Cc1ccc(Nc2nc(Oc3cccc4cccnc34)nc(N3CCN(c4ccccc4)CC3)n2)cc1C(F)(F)F | H37Rv | agar | MIC96 |  | 500 µg/mL
CC(C)CCCC(C)CCS(=O)(=O)C[C@@H]1O[C@H](CO)[C@@H](O)[C@@H]1O | H37Rv |  | EC50 |  | >6.25 µg/mL
CCCCc1nc(Cl)c(/C=N/NC(N)=S)n1CCCN1CCN(c2ccccc2Cl)CC1 | H37Rv | agar | MIC |  | 25 µg/mL
CCCCCCCCCCCCCCCCS(=O)(=O)C[C@@H]1O[C@H](CO)[C@@H](O)[C@@H]1O | H37Rv |  | inhibition | 6.25 µg/mL | 0%
O=c1oc2ccccc2c(O)c1C1=CC(c2c[nH]c3ccccc23)Sc2ccccc2N1 | H37Rv | resazurin | MIC |  | <6.25 µg/mL
CCCOc1ccccc1NC(=O)OCC[NH+]1CCCC1 | My 331/88 |  | MIC |  | 1000 µM
C[C@H]1COc2c(N3CCN(C)CC3)c(F)cc3c(=O)c(C(=O)O)cn1c23 | XDR-TB | agar | MIC |  | 16 µg/mL
NNC(=O)c1ccccn1 |  |  | MIC |  | 10 µg/mL
CCCCCCCCCCCCCCCCOCCCCOP(=O)(O)C[C@@H]1O[C@H](CO)[C@@H](O)[C@@H]1O | H37Rv |  | inhibition | 6.25 µg/mL | 92%
CCCCCCCCCOc1ccc(NC(=O)OCC[NH+]2CCCC2)cc1 | My 331/88 |  | MIC |  | 16 µM
CCOC(=O)NN(C(=O)OCC)c1c(NNC(C)=O)nc(N)[nH]c1=O | H37Rv | BACTEC | inhibition | 12.5 µg/mL | 9%
CCOC(=O)c1cc(C(=O)c2ccc(F)cc2)n2ccc(C(=O)OC(C)C)cc12 | H37Rv | resazurin | MIC |  | 1 µg/mL
N#Cc1ccc(Nc2nc(Oc3cccc4cccnc34)nc(N3CCC(Cc4ccccc4)CC3)n2)cc1C(F)(F)F | H37Rv | agar | MIC97 |  | 200 µg/mL
CCCCc1nc(Cl)c(/C=N/NC(N)=S)n1CCCN1CCN(c2ccccc2C)CC1 | H37Rv | agar | MIC |  | 3.13 µg/mL
O=C1c2cc(C3OCCCO3)ccc2-n2c1nc1ccncc1c2=O | H37Rv |  | MIC |  | 0.5 µg/mL
COc1cccc(C2C=C(c3c(O)c4ccccc4oc3=O)Nc3ccccc3S2)c1 | H37Rv | resazurin | MIC |  | <6.25 µg/mL
CC(=O)Nc1ccc(/C=N/NC(=O)c2cccnc2)cc1 |  |  | MIC |  | 1 µg/mL
O=C(NNc1nc(Nc2ccccn2)nc(Nc2ccccc2Cl)n1)c1ccncc1 | H37Rv | BACTEC / radiometric | inhibition | 0.065 µM | 80%
CC(C)(C)OC(=O)N[C@@H](Cc1c[nH]c2ccccc12)C(=O)ON1C(=O)CCC1=O | H37Rv | resazurin | inhibition | 6.25 µg/mL | 99%
CC[C@@H](/C=C/[C@@H](C)[C@H]1CCC2C34C=CC5(C[C@@H](O)CC[C@]5(C)C3CC[C@@]21C)OO4)C(C)C | H37Rv (ATCC 27294) |  | MIC |  | 2 µg/mL
O=C(N/N=C/c1ccc(OCCO)cc1)c1ccncc1 |  |  | MIC |  | 0.1 µg/mL
O=C(Oc1c(OC(=O)c2ccccc2)c2ccccc2c2ccccc12)c1ccccc1 | H37Rv | resazurin | inhibition | 6.25 µg/mL | -4%
CCCCCCCCCCOc1ccc(NC(=O)OCC[NH+]2CCCC2)cc1 | My 331/88 |  | MIC |  | 16 µM
COC(=O)C1=C(C)NC(Nc2cc(O)cc(Cl)c2)=NC1c1ccc(Cl)cc1 | H37Rv | agar | MIC |  | 32 µg/mL
CCCCCCCOc1ccccc1NC(=O)OCC[NH+]1CCCC1 | My 331/88 |  | MIC |  | 32 µM
O=c1oc2ccccc2c(O)c1C1=Nc2ccccc2SC(c2cccc([N+](=O)[O-])c2)C1 | H37Rv | resazurin | MIC |  | <6.25 µg/mL
Cc1nnc2sc3c(Cl)c4nn5c(C)nnc5sc4c(Cl)c3nn12 | H37Rv | BACTEC | inhibition | 12.5 µg/mL | -5%
CCCCCCCCOc1ccccc1NC(=O)OCC[NH+]1CCCC1 | My 331/88 |  | MIC |  | 32 µM
Nc1ccc(C(=O)O)c(O)c1 | H37Rv | resazurin | MIC |  | 0.125 µg/mL
O=C1C=C(Nc2cccnc2)c2ccccc2C1=O | H37Rv | resazurin | MIC bound |  | >6.25 µg/mL
COc1ccc(Nc2nc(NNC(=O)c3ccncc3)nc(Nc3ccccn3)n2)cc1 | H37Rv | BACTEC / radiometric | inhibition | 0.0211 µM | 94%
Nn1c(CCCCCCCCc2nnc(COc3ccc4ccccc4c3O)n2N)nnc1COc1ccc2ccccc2c1O | H37Rv | resazurin | inhibition | 6.25 µg/mL | 15%
Cc1ccc(C)c2c(O)c(C3=Nc4ccccc4NC(c4ccc(Cl)cc4)C3)c(=O)oc12 | H37Rv | resazurin | MIC |  | >6.25 µg/mL
O=C(NNc1nc(Nc2ccc([N+](=O)[O-])cc2)nc(Nc2ccccn2)n1)c1ccncc1 | H37Rv | BACTEC / radiometric | inhibition | 0.1211 µM | 69%
CCc1n[nH]c(=O)n1NC(=O)/C=C\C(=O)O | H37Rv | resazurin | inhibition | 6.25 µg/mL | -11%
O=C(N/N=C/c1ccco1)c1ccncc1 |  |  | MIC |  | 0.1–10 µg/mL
CCCCCCCCS(=O)(=O)c1ccc2c(c1)C(=O)c1nc3c(OC)cccc3c(=O)n1-2 | H37Rv |  | MIC |  | >8 µg/mL
CO[C@H]1/C=C/O[C@@]2(C)Oc3c(C)c(O)c4c(O)c(c(/C=N/N5CCN(C)CC5)c(O)c4c3C2=O)NC(=O)/C(C)=C\C=C\[C@H](C)[C@H](O)[C@@H](C)[C@@H](O)[C@@H](C)[C@H](OC(C)=O)[C@@H]1C | H37Rv | resazurin | MIC |  | 0.1 µg/mL
CCc1cccc(CC)c1NC1=CC(=O)C(=O)c2ccccc21 | H37Rv | resazurin | MIC bound |  | >6.25 µg/mL
O=c1oc2ccccc2c(O)c1C1=CC(c2ccc(F)cc2)Sc2ccccc2N1 | H37Rv | resazurin | MIC |  | <6.25 µg/mL
CCCCCCCCCCCCCCCCCC(=O)O[C@H]1CC[C@]2(C)C3CC[C@@]4(C)C(CC[C@@H]4[C@H](C)/C=C/[C@H](C)C(C)C)C34C=CC2(C1)OO4 | H37Rv (ATCC 27294) |  | MIC |  | 4 µg/mL
O=C1c2cc(Cl)ccc2-n2c1nc1cc(N3CCOCC3)ccc1c2=O | H37Rv |  | MIC |  | 0.5 µg/mL
CC1CC(C)CN(c2nc(Nc3ccc(C#N)c(C(F)(F)F)c3)nc(Oc3cccc4cccnc34)n2)C1 | H37Rv | BACTEC | MIC99 |  | 6.25 µg/mL
O=C1c2cc(Br)ccc2-n2c1nc1ccccc1c2=O | H37Rv |  | MIC |  | 0.06 µg/mL
COc1ccc(CN2CCN(c3nc(Nc4ccc(C#N)c(C(F)(F)F)c4)nc(Oc4cccc5cccnc45)n3)CC2)c(OC)c1OC | H37Rv | agar | MIC99 |  | 12.5 µg/mL
COC(=O)C1=C(C)NC(=NCc2ccc(OC)cc2OC)NC1c1ccc(Cl)cc1 | XDR-TB | agar | MIC |  | >64 µg/mL
CCOc1ccccc1NC(=O)OCC[NH+]1CCCC1 | My 331/88 |  | MIC |  | >1000 µM
CCCCc1nc(Cl)c(/C=N/NC(N)=S)n1CCCN1CCN(Cc2ccc(F)cc2)CC1 | H37Rv | agar | MIC |  | 50 µg/mL
CC1(C)COC2(CC(C)(C)OC2(C)C)OC1 | H37Rv | BACTEC | MIC bound |  | >12.5 µg/mL
COC(=O)C1=C(C)NC(Nc2cccc(SC(F)(F)F)c2)=NC1c1ccc(Cl)cc1 | MDR-TB | agar | MIC |  | 16 µg/mL
Cc1cc(C(=O)NNCc2ccccc2)no1 | H37Rv | BACTEC | inhibition | 12.5 µg/mL | 27%
COC(=O)C1=C(C)NC(Nc2ccc(Br)cc2)=NC1c1ccc(Cl)cc1 | H37Rv | agar | MIC |  | 16 µg/mL
Cc1ncc(COP(=O)(O)O)c(C2NCCS2)c1O | H37Rv | BACTEC | MIC bound |  | >12.5 µg/mL
CCCCCCCCOc1ccc(NC(=O)OCC[NH+]2CCCC2)cc1 | My 331/88 |  | MIC |  | 32 µM
Cc1ccc(NP2(Nc3ccc(C)cc3)=NP(Nc3ccc(C)cc3)(N3CC3)=NP(Nc3ccc(C)cc3)(N3CC3)=N2)cc1 | KM-R |  | MIC |  | 6.4 µg/mL
N#Cc1ccc(Nc2nc(Oc3cccc4cccnc34)nc(N3CCCCC3)n2)cc1C(F)(F)F | H37Rv | agar | MIC96 |  | 200 µg/mL
O=c1/c(=C\c2ccc(Cl)c(Cl)c2)sc2n1CCN=2 | H37Rv | BACTEC | MIC bound |  | >6.25 µg/mL
O=C(NNc1nc(Nc2cccc(Cl)c2)nc(Nc2ccccn2)n1)c1ccncc1 | H37Rv | BACTEC / radiometric | inhibition | 0.055 µM | 82%
CS(=O)(=O)C(c1nc2nnc(N)n2[nH]c1=O)c1nc2nnc(N)n2[nH]c1=O | H37Rv | BACTEC | MIC bound |  | >12.5 µg/mL
Cc1nc(N)c2ncn([C@@H]3O[C@H](CO)[C@@H](O)[C@H]3O)c2n1 | H37Rv |  | MIC |  | 8 µg/mL
CC(C)(C)SC(=S)SCC(=O)c1cc2cc(Br)ccc2o1 | H37Rv | BACTEC | inhibition | 12.5 µg/mL | 33%
COc1cccc(Nc2nc(NNC(=O)c3ccncc3)nc(Nc3ccccn3)n2)c1 | H37Rv | BACTEC / radiometric | inhibition | 0.689 µM | 83%

Repeating the first 7 entries:

structure	strain or isolate	read by	read-out	dose	value
CN1C(=O)C=C(N)C1=O	H37Rv	BACTEC	MIC		≥12.8 µg/mL
CCCCCCCCCCCCCCCOCCCCCCCCCCS(=O)(=O)C[C@@H]1O[C@H](CO)[C@@H](O)[C@@H]1O	H37Rv		EC50		>6.25 µg/mL
O=C(NNc1nc(Nc2ccc(O)cc2)nc(Nc2ccccn2)n1)c1ccncc1	H37Rv	BACTEC / radiometric	inhibition	0.1277 µM	77%
O=C(N/N=C/c1c(Cl)cccc1Cl)c1cccnc1			MIC		1 µg/mL
COc1ccc(Nc2nc3c(s2)c(C)c(O)c2ccccc23)cc1	H37Rv	BACTEC	MIC bound		>12.5 µg/mL
CCCCc1nc(Cl)c(/C=N/NC(N)=S)n1CCCN1CCN(c2ccc(C#N)cc2)CC1	H37Rv	agar	MIC		50 µg/mL
CC(C)N=c1cc2n(-c3ccc(Cl)cc3)c3ccccc3nc-2cc1Nc1ccc(Cl)cc1	H37Rv	resazurin	MIC		0.24 µg/mL